Results published in US7968297B2, “Method for identification, isolation and production of antigens to a specific pathogen” (Intercell AG, priority 2001, dated 2011).

Test system: antibodies in human serum
Experiment: Bacterial surface display library screening by MACS with biotinylated human serum
Assay type: binding
Conditions: for No. of selected clones per ORF and screen: F: Bacterial surface display: F, LSA50/6 library in lamB with patient sera P1 (1105); for No. of selected clones per ORF and screen: B: Bacterial surface display: B; for No. of selected clones per ORF and screen: G: Bacterial surface display: G, LSA50/6 library in lamb with IC sera 1 (471); for No. of selected clones per ORF and screen: A: Bacterial surface display: A
[1] = screen A: LSA250/1 library in fhuA with patient sera 1 (655)
[2] = screen C: LSA250/1 library in fhuA with IC sera 1 (571)
[3] = screen E: LSA50/6 library in lamB with IC sera 2 (454)
[4] = screen F: LSA50/6 library in lamB with patient sera P1 (1105)
[5] = screen B: LSA50/6 library in lamB with patient sera 1 (484)
[6] = screen G: LSA50/6 library in lamb with IC sera 1 (471)
[7] = screen H: LSA250/1 library in fhuA with patient sera 1 (IgA, 708)
[8] = identified by bacterial surface display
[9] = LSE70 library in lamB with patient sera 2 (1420)
[10] = ORFs selected by bacterial surface display (screens A, B, C; some also D)
[11] = LSE150 library in fhuA with patient sera 2 (957)

## Cmp binding factor 1 homolog [compound 1491]
[1]
  No. of selected clones per ORF and screen: 7
[2]
  No. of selected clones per ORF and screen: 2
[3]
  No. of selected clones per ORF and screen: 7
[4]
  No. of selected clones per ORF and screen: 4

## Lipase (geh) [compound 2798]
[1]
  No. of selected clones per ORF and screen: A: 41,
[5]
  No. of selected clones per ORF and screen: B: 42,
[2]
  No. of selected clones per ORF and screen: C: 3,
[4]
  No. of selected clones per ORF and screen: F: 35,
[6]
  No. of selected clones per ORF and screen: G: 1,
[7]
  No. of selected clones per ORF and screen: H: 11

## ARF0280 (VYMLSSTRFIVRWYNNCNKSTNIINERSSGSIKSDGNSSCFFK)
  No. of selected clones per ORF and screen: F: F: 6
[8]
  Location of identified Immunogenic region: aa 25-43

## Complement, unknown [compound 0308]
[1]
  No. of selected clones per ORF and screen: 6
[5]
  No. of selected clones per ORF and screen: 2
[2]
  No. of selected clones per ORF and screen: C: 47,
[3]
  No. of selected clones per ORF and screen: E: 35

## YtpT, conserved hypothetical protein [compound 1371]
[2]
  No. of selected clones per ORF and screen: 3
[3]
  No. of selected clones per ORF and screen: 2
[6]
  No. of selected clones per ORF and screen: G: 1

## V8 protease [compound 0569]
[1]
  No. of selected clones per ORF and screen: A: 1, F: 1
[4]
  No. of selected clones per ORF and screen: A: 1, F: 1

## putative Exotoxin [compound 2963]
[2]
  No. of selected clones per ORF and screen: C: 3, E: 3,
[3]
  No. of selected clones per ORF and screen: C: 3, E: 3,
[6]
  No. of selected clones per ORF and screen: G: 1

## NifS protein homolog [compound 1344]
[1]
  No. of selected clones per ORF and screen: A: 11

## hemN homolog [compound 1209]
[5]
  No. of selected clones per ORF and screen: 7
[4]
  No. of selected clones per ORF and screen: 8

## ORF1; homology with putative secreted antigen precursor from S. epidermidis [compound 2264]
[1]
  No. of selected clones per ORF and screen: A: 131,
[5]
  No. of selected clones per ORF and screen: B: 51,
[2]
  No. of selected clones per ORF and screen: C: 13,
[3]
  No. of selected clones per ORF and screen: E: 43,
[4]
  No. of selected clones per ORF and screen: F: 78,
[6]
  No. of selected clones per ORF and screen: G: 2,
[7]
  No. of selected clones per ORF and screen: H: 17

## Conserved hypothetical protein [compound 2470]
[2]
  No. of selected clones per ORF and screen: C: 3

## metC [compound 2914]
[1]
  No. of selected clones per ORF and screen: A: 1,
[2]
  No. of selected clones per ORF and screen: C: 14,
[4]
  No. of selected clones per ORF and screen: F: 2

## CRF2409 (RRRPPQSNCPPDTVSHHDKWCGLESQHS)
[9]
  No. of selected clones per ORF and screen: B: B: 6
[10]
  Location of identified Immunogenic region: aa 2-24

## CRF2004 (MNEASNLILTMPNESKAATKIAKIKPPITGAGIQIRFKKLT)
  No. of selected clones per ORF and screen: F: F: 13
[8]
  Location of identified Immunogenic region: aa 16-32

## coma operon protein 2 [compound 0453]
[2]
  No. of selected clones per ORF and screen: C: 3

## CRF2498 (EVLAIPLSKHEAPAICSCCITLVVVCYWNSNCKVFIKIYFIIIF)
  No. of selected clones per ORF and screen: G: G: 8
[8]
  Location of identified Immunogenic region: aa 2-15

## SdrE [compound 0095]
[2]
  No. of selected clones per ORF and screen: C: 12,
[3]
  No. of selected clones per ORF and screen: E: 2

## Coagulase [compound 2680]
[2]
  No. of selected clones per ORF and screen: C: 26,
[6]
  No. of selected clones per ORF and screen: 4
[7]
  No. of selected clones per ORF and screen: 8

## leukocidin F homolog [compound 1616]
[1]
  No. of selected clones per ORF and screen: A: 10

## ISSP, immunogenic secreted protein precursor, putative [compound 2359]
[5]
  No. of selected clones per ORF and screen: 4
[4]
  No. of selected clones per ORF and screen: 11

## FnbpB [compound 2184]
[1]
  No. of selected clones per ORF and screen: 2
[2]
  No. of selected clones per ORF and screen: 4
[6]
  No. of selected clones per ORF and screen: G: 9

## aureolysin [compound 2351]
[1]
  No. of selected clones per ORF and screen: 1
[2]
  No. of selected clones per ORF and screen: 6

## CRF2309 (LEPPTRRALTSNTGMILLIASSNTSNASRPLRCSTRSNAE)
[9]
  No. of selected clones per ORF and screen: B: B: 6
[10]
  Location of identified Immunogenic region: aa 4-16

## homology with ORF1 [compound 3002]
[1]
  No. of selected clones per ORF and screen: 2
[2]
  No. of selected clones per ORF and screen: 1
[7]
  No. of selected clones per ORF and screen: H: 4

## Carbamoyl-phosphate synthase [compound 0749]
[2]
  No. of selected clones per ORF and screen: C: 2

## Hypothetical protein [compound 2577]
[2]
  No. of selected clones per ORF and screen: C: 6

## putative Exotoxin [compound 2960]
[2]
  No. of selected clones per ORF and screen: C: 101,
[3]
  No. of selected clones per ORF and screen: E: 2,
[7]
  No. of selected clones per ORF and screen: H: 58

## LPXTGVI protein [compound 0657]
[1]
  No. of selected clones per ORF and screen: A: 2,
[5]
  No. of selected clones per ORF and screen: B: 27,
[4]
  No. of selected clones per ORF and screen: F: 15

## CRF1004 (YFFISFLIRLISCSLITETISICPFLDIIEPLPPIKVSSANSGMTGSKSLMGRADANITL)
[11]
  No. of selected clones per ORF and screen: A: 3
[9]
  No. of selected clones per ORF and screen: B: 5
[10]
  Location of identified Immunogenic region: aa 29-65

## CRF0879 (AGFLTKAVLKSTSSLSSNTSSTTSLRAITLNEPSSIFNSTLTFLALS)
[11]
  No. of selected clones per ORF and screen: A: A: 3,
[9]
  No. of selected clones per ORF and screen: B: B: 10
[10]
  Location of identified Immunogenic region: aa 9-40

## homology with ORF1 [compound 2746]
[1]
  No. of selected clones per ORF and screen: A: 1,
[7]
  No. of selected clones per ORF and screen: H: 13

## CRF1928 (RQRPVHVFPKNNNPHGQYNHQYQHHYVTLANAF)
  No. of selected clones per ORF and screen: F: F: 9
[8]
  Location of identified Immunogenic region: aa 13-22

## homology with ORF1 [compound 1955]
[1]
  No. of selected clones per ORF and screen: 1
[5]
  No. of selected clones per ORF and screen: 3
[3]
  No. of selected clones per ORF and screen: 1
[4]
  No. of selected clones per ORF and screen: 8

## CRF0308 (RCTKLNVKNADPPAMTAIQQSDATPPNINRKKPHAMAAAKKFVKKEYCNDACCK)
LSA250/1 library in fhuA with patient sera 1 (655)
  No. of selected clones per ORF and screen: A: 6
LSA50/6 library in lamB with patient sera 1 (484)
  No. of selected clones per ORF and screen: B: 2
Bacterial surface display: C, LSA250/1 library in fhuA with IC sera 1 (571)
  No. of selected clones per ORF and screen: C: C: 47,
Bacterial surface display: E, LSA50/6 library in lamB with IC sera 2 (454)
  No. of selected clones per ORF and screen: E: E: 35
[8]
  Location of identified Immunogenic region: aa 5-38

## LPXTGIV protein [compound 2180]
[1]
  No. of selected clones per ORF and screen: A: 3, C: 3,
[2]
  No. of selected clones per ORF and screen: A: 3, C: 3,
[3]
  No. of selected clones per ORF and screen: 6
[4]
  No. of selected clones per ORF and screen: 2
[7]
  No. of selected clones per ORF and screen: H: 6

## CRF0750 (DAPLGLIPGVTFKNDVPNFSVNIRLSRGEQTTPSKPAAFANLA)
  No. of selected clones per ORF and screen: G: G: 44
[8]
  Location of identified Immunogenic region: aa 25-39

## IgG binding protein A [compound 2548]
[1]
  No. of selected clones per ORF and screen: A: 55,
[5]
  No. of selected clones per ORF and screen: B: 54,
[2]
  No. of selected clones per ORF and screen: C: 35,
[4]
  No. of selected clones per ORF and screen: F: 59,
[6]
  No. of selected clones per ORF and screen: G: 56,
[7]
  No. of selected clones per ORF and screen: H: 38

## IgG binding protein [compound 2086]
[1]
  No. of selected clones per ORF and screen: 1
[5]
  No. of selected clones per ORF and screen: 8
[3]
  No. of selected clones per ORF and screen: E: 24,
[4]
  No. of selected clones per ORF and screen: F: 9,
[6]
  No. of selected clones per ORF and screen: G: 137

B1: repC [ORF2967P] (protein, listed as Staphylococcus aureus)
chain: VLRSDFYMSYSIVRVSKVKSGTNTTGIQKHVQRENNNYENEDIDHSKTYLNYDLVNANKQNFNNLIDEKIEQNYTGKRKIRTDAIKHIDGLITSDNDFFDNQTPEDTKQFFEYAKEFLEQEYGKDNLLYATVHMDEKTPHMHYGVVPITDDGRLSAKEVVGNKKALTAFQDRFNEHVKQRGYDLERGQSRQVTNAKHEQISQYKQKTEYHKQEYERESQKTDHIKQKNDKLMQEYQKSLNTLKKPINVPYEQETEKVGGLFSKEIQETGNVVISQKDFNEFQKQIKAAQDISEDYEYIKSGRALDDKDKEIREKDDLLNKAVERIENADDNFNQLYENAKPLKENIEIALKLLKILLKELERVLGRNTFAERVNKLTEDEPMA
[2]
  No. of selected clones per ORF and screen: C: 18

B2: repC [ORF2963P] (protein, listed as Staphylococcus aureus)
chain: MQEYQKSLNTLKKPINVPYEQETEKVGGLFSKEIQETGNVVISQKDFNEFQKQIKAAQDISEDYEYIKSGRALDDKDKEIREKDDLLNKAVERIENADDNFNQLYENAKPLKENIEIALKLLKILLKELERVLGRNTFAERVNKLTEDEPKLNGLAGNLDKKMNPELYSEQEQQQEQQKNQKRDRGMHL
[2]
  No. of selected clones per ORF and screen: C: 3

B3: homology with ORF1 [1951] (protein, listed as Staphylococcus aureus)
chain: MKKIATATIATAGFATIAIASGNQAHASEQDNYGYNPNDPTSYSYTYTIDAQGNYHYTWKGNWHPSQLNQDNGYYSYYYYNGYNNYNNYNNGYSYNNYSRYNNYSNNNQSYNYNNYNSYNTNSYRTGGLGASYSTSSNNVQVTTTMAPSSNGRSISSGYTSGRNLYTSGQCTYYVFDRVGGKIGSTWGNASNWANAAARAGYTVNNTPKAGAIMQTTQGAYGHVAYVESVNSNGSVRVSEMNYGYGPGVVTSRTISASQAAGYNFIH
[1]
  No. of selected clones per ORF and screen: A: 223,
[5]
  No. of selected clones per ORF and screen: B: 56,
[2]
  No. of selected clones per ORF and screen: C: 167,
[3]
  No. of selected clones per ORF and screen: E: 43,
[4]
  No. of selected clones per ORF and screen: F: 100,
[6]
  No. of selected clones per ORF and screen: G: 13,
[7]
  No. of selected clones per ORF and screen: H: 102
